A mixed list of measured activities; the numbers were collected in NIAID ChemDB.

All rows: cytotoxicity tests; cells: H9; measure: CC50

Two numbers with a dash give a range or band. Neighbouring rows are from separate reports. An empty or dashed field is not shown. CCn: concentration that lowers growth or viability of the cells by n%.

SMILES,method,value
O=c1ccn([C@H]2C[C@H](F)[C@@H](CO)O2)c(=O)[nH]1,-,>500 µM
CC(=O)N[C@H]1[C@H]([C@H](OS(=O)(=O)O)[C@@H](COS(=O)(=O)O)OS(=O)(=O)O)O[C@@](OCCCCCCCCCCCCCCCC(=O)O)(C(=O)O)C[C@@H]1OS(=O)(=O)O,MTT,>200 µM
COc1c(O)cc2c3c1-c1cc(O)ccc1C[C@H]3N(C)CC2,cell count,35.2 µg/mL
Nc1ccn([C@H]2CC[C@@H](CO)O2)c(=O)n1,-,55.1 µM
COc1cc2c(cc1OC)[C@@H](Cc1ccc(O)c(Oc3cc4c(cc3OC)CCN(C)[C@@H]4Cc3ccc(O)cc3)c1)N(C)CC2,cell count,7.97 µg/mL
CC(=O)O[C@@H]1[C@H](OC(=O)CC(C)C)c2c(ccc3ccc(=O)oc23)OC1(C)C,-,4–20 µg/mL
Cc1cn([C@H]2C=C[C@@H](CO)O2)c(=O)[nH]c1=O,-,75.2 µM
COc1cc([C@@H]2c3cc4c(cc3[C@@H](Nc3nc5ccccc5[nH]3)[C@H]3COC(=O)[C@H]23)OCO4)cc(OC)c1O,-,0.206 µg/mL
CCCCCCCCCCCCCCCCCCCCCCOC[C@H](CO[C@]1(C(=O)O)C[C@H](OS(=O)(=O)O)[C@@H](NC(C)=O)[C@H]([C@H](OS(=O)(=O)O)[C@@H](COS(=O)(=O)O)OS(=O)(=O)O)O1)OCCCCCCCCCCCCCCCCCCCCCC,-,>200 µM
CC1(C)Oc2ccc3ccc(=O)oc3c2[C@@H](OC(=O)C23CCC(C)(C(=O)O2)C3(C)C)[C@H]1OC(=O)C12CCC(C)(C(=O)O1)C2(C)C,-,32–160 µM
Cc1cc(=O)oc2c3c(ccc12)SC[C@H](OC(=O)C12CCC(C)(C(=O)O1)C2(C)C)[C@@H]3OC(=O)C12CCC(C)(C(=O)O1)C2(C)C,-,155 µM
Nc1ccn([C@H]2CC[C@@H](CO)O2)c(=O)n1,-,13 µM
O=C1O[C@H]([C@@H](O)CO)C2(O)Oc3cc(O)c4c(c3[C@@]12O)O[C@H](c1cc(O)c(O)c(O)c1)[C@H](O)C4,-,38 µg/mL
COc1cc2c(cc1OC)[C@@H](Nc1ccc([N+](=O)[O-])cc1)[C@H]1COC(=O)[C@@H]1[C@@H]2c1cc(OC)c(OC)c(OC)c1,-,5.29 µg/mL
CCCC1(C)Oc2ccc3c(C)cc(=O)oc3c2[C@@H](OC(=O)C23CCC(C)(C(=O)O2)C3(C)C)[C@H]1OC(=O)C12CCC(C)(C(=O)O1)C2(C)C,-,>37.6 µM
Nc1nc2c(ncn2[C@H]2C[C@H](O)[C@@H](CO)O2)c(=O)o1,MTT,>500 µg/mL
CC(C)[C@H](NC(=O)N(C)Cc1ccccn1)C(=O)N[C@@H](Cc1ccccc1)[C@H](O)[C@@H](O)[C@H](Cc1ccccc1)NC(=O)[C@@H](NC(=O)N(C)Cc1ccccn1)C(C)C,trypan blue,>100 µM
O=c1[nH]cnc2c1ncn2[C@H]1CC[C@@H](CO)O1,-,>1 µg/mL
CCc1cc(NCc2nc3c(C)ccc(C)c3o2)c(=O)[nH]c1C,-,>60 µM
O=c1cc(-c2ccccc2)sc2cc(O)c(O)cc12,-,1.8 µg/mL
O=C(O[C@H](Cc1c(O)cc(O)cc1O)C(c1cc(O)c(O)c(O)c1)c1c(O)cc2c(c1O)C[C@@H](OC(=O)c1cc(O)c(O)c(O)c1)[C@@H](c1cc(O)c(O)c(O)c1)O2)c1cc(O)c(O)c(O)c1,-,35 µg/mL
COc1cc2c(cc1OC)[C@@H](Cc1ccc(OC)c(Oc3cc4c(cc3OC)CCN(C)[C@@H]4Cc3ccc(O)cc3)c1)N(C)CC2,cell count,6.87 µg/mL
CCCCCCCCCCCCCCOC[C@H](CO[C@]1(C(=O)O)C[C@H](OS(=O)(=O)O)[C@@H](NC(C)=O)[C@H]([C@H](OS(=O)(=O)O)[C@@H](COS(=O)(=O)O)OS(=O)(=O)O)O1)OCCCCCCCCCCCCCC,MTT,>100 µM
Cc1cn([C@H]2C[C@H](N=[N+]=[N-])[C@@H](CO)O2)c(=O)[nH]c1=O,-,>500 µM
COc1cc([C@@H]2c3cc4c(cc3[C@H](O)[C@H]3COC(=O)[C@H]23)OCO4)cc(OC)c1OC,-,0.0025 µg/mL
CCc1cc(=O)c2cc(C(C)(C)C)c3c(c2o1)[C@@H](OC(=O)C12CCC(C)(C(=O)O1)C2(C)C)[C@@H](OC(=O)C12CCC(C)(C(=O)O1)C2(C)C)C(C)(C)O3,-,35.4 µM
O=C(Oc1cc([C@H]2Oc3cc(O)cc(O)c3C[C@H]2OC(=O)c2cc(O)c(O)c(O)c2)cc(O)c1O)c1cc(O)c(O)c(O)c1,-,40 µg/mL
O=c1cc(-c2ccccc2)sc2ccc(O)cc12,-,40 µg/mL
Nc1ccn([C@@H]2O[C@H](CO)C=C2F)c(=O)n1,-,6 µg/mL
Nc1nc2c(ncn2[C@H]2CC[C@@H](CO)C2)c(=O)o1,MTT,>500 µg/mL
CCC(c1cccc(NS(=O)(=O)c2ccc(C#N)cn2)c1)c1c(O)c2c(oc1=O)CCCCCCCC2,-,>30 µM
CC1(C)CC[C@]2(C(=O)O)CC[C@]3(COC(=O)/C=C/c4ccc(O)c(O)c4)C(=CCC4[C@@]5(C)CC[C@H](OC(=O)/C=C/c6ccc(O)cc6)C(C)(C)C5CC[C@]43C)[C@@H]2C1,-,>25 µg/mL
Cc1cc(=O)oc2c3c(ccc12)OC(C)(C)[C@H](OC(=O)C12CCC(C)(C(=O)O1)C2(C)C)[C@@H]3OC(=O)C12CCC(C)(C(=O)O1)C2(C)C,-,39.3 µM
COc1cc(/C=C/C(=O)Oc2ccc(/C=C\C(=O)NCCc3ccc(O)cc3)cc2OC)ccc1O,-,>25 µg/mL
CN1CCc2cc3c(c4c2[C@H]1Cc1ccc(O)cc1-4)OCO3,cell count,7.8 µg/mL
Cc1cn([C@H]2C[C@H](F)[C@@H](CO)O2)c(=O)[nH]c1=O,-,5 µM
COCCCCCCCCCCCC(=O)O,-,>100 µM
CC1(C)Oc2ccc3c(=O)cc(-c4ccccc4)oc3c2[C@@H](OC(=O)C23CCC(C)(C(=O)O2)C3(C)C)[C@H]1OC(=O)C12CCC(C)(C(=O)O1)C2(C)C,-,>35.82 µM
Nc1nc2c(ncn2[C@H]2C=C[C@@H](CO)O2)c(=O)o1,MTT,>500 µg/mL
CCCCCCCCCCCCCCCCCCCCCCOCC(C)(COCCCCCCCCCCCCCCCCCCCCCC)CO[C@]1(C(=O)O)C[C@H](OS(=O)(=O)O)[C@@H](NC(C)=O)[C@H]([C@H](OS(=O)(=O)O)[C@@H](COS(=O)(=O)O)OS(=O)(=O)O)O1,MTT,>200 µM
COc1cc(/C=C/C(=O)O[C@H]2CC[C@@]3(C)C(CC[C@]4(C)C3CC=C3[C@@H]5CC(C)(C)CC[C@]5(C(=O)O)CC[C@]34COC(=O)/C=C/c3ccc(O)c(O)c3)C2(C)C)ccc1O,-,14.95 µg/mL
CC(C)[C@H](NC(=O)OCc1ccccc1)C(=O)NC(Cc1ccccc1)C(O)C(Cc1ccccc1)NC(=O)[C@@H](NC(=O)OCc1ccccc1)C(C)C,trypan blue,120 µM
COc1cc([C@@H]2c3cc4c(cc3[C@@H](Nc3ccc(NC(=O)C56CCC(C)(C(=O)O5)C6(C)C)cc3)[C@H]3COC(=O)[C@H]23)OCO4)cc(OC)c1O,-,0.018 µg/mL
Cc1cn([C@H]2C[C@H](N=[N+]=[N-])[C@@H](CO)O2)c(=O)[nH]c1=O,-,2000 µM
CC(C)[C@@H](NC(=O)C[C@@H]1O[C@@H]1[C@H](Cc1ccccc1)NC(=O)[C@@H](NC(=O)COc1cccc2cnccc12)C(C)(C)S(C)(=O)=O)c1ccccc1,-,>100 µM
CCC(c1cccc(NS(=O)(=O)c2ccc(C#N)cn2)c1)c1c(O)c2c(oc1=O)CCCCC2,-,>30 µM
COc1cc([C@@H]2Oc3c(OC)cc(CCCO)cc3[C@H]2CO)ccc1O,-,>25 µg/mL
CC(C)[C@H](NC(=O)OCc1ccccc1)C(=O)N[C@@H](Cc1ccccc1)[C@H](O)[C@H](O)[C@H](Cc1ccccc1)NC(=O)[C@@H](NC(=O)OCc1ccccc1)C(C)C,trypan blue,60 µM
Nc1ccn([C@@H]2O[C@H](CO)C[C@H]2F)c(=O)n1,-,90 µg/mL
Cc1cc(=O)c2ccc3c(c2o1)[C@@H](OC(=O)C12CCC(C)(C(=O)O1)C2(C)C)[C@@H](OC(=O)C(C)C)C(C)(C)O3,-,40.7 µM
Cc1cn([C@H]2C[C@H](N=[N+]=[N-])[C@@H](CO)O2)c(=O)[nH]c1=O,-,90 µM
CC(C)(O)CCC(=O)[C@](C)(O)C1[C@H](O)C[C@@]2(C)[C@@H]3CC=C4[C@@H](C[C@H](O)[C@@H](O)C4(C)C)[C@]3(C)C(=O)C[C@]12C,-,9.3 µg/mL
CC1(C)Oc2ccc3ccc(=O)oc3c2[C@H](OC(=O)C23CCC(C)(C(=O)O2)C3(C)C)[C@H]1OC(=O)C12CCC(C)(C(=O)O1)C2(C)C,-,6.4–32 µM
CCC(C1=C(O)C2CCCC2OC1=O)c1cccc(NS(=O)(=O)c2ccc(C#N)cn2)c1,-,>30 µM
Nc1nc2c(ncn2[C@H]2CC[C@@H](CO)O2)c(=O)[nH]1,-,400 µM
CC1=CCC[C@H]2[C@](C)(Cc3cc(O)ccc3O)[C@@H](C)CC[C@]12C,-,1.6 µM
COc1cc2c(cc1O)[C@@H](Cc1ccc(O)cc1)NCC2,cell count,>100 µg/mL
Cc1cc(=O)c2ccc3c(c2o1)[C@@H](OC(=O)C12CCC(C)(C(=O)O1)C2(C)C)[C@@H](OC(=O)C12CCC(C)(C(=O)O1)C2(C)C)C(C)(C)O3,-,27.3 µM
Cc1cn([C@H]2C[C@H](F)[C@@H](CO)O2)c(=O)[nH]c1=O,-,>500 µM
CC(C)[C@H](NC(=O)OCc1ccccc1)C(=O)N[C@@H](CSC(C)(C)C)[C@@H](O)[C@H](O)[C@H](CSC(C)(C)C)NC(=O)[C@@H](NC(=O)OCc1ccccc1)C(C)C,trypan blue,20 µM
CCCCCCCCCCCCCCOC[C@H](CS[C@]1(C(=O)O)C[C@H](OS(=O)(=O)O)[C@@H](NC(C)=O)[C@H]([C@H](OS(=O)(=O)O)[C@@H](COS(=O)(=O)O)OS(=O)(=O)O)O1)OCCCCCCCCCCCCCC,MTT,~200 µM
CCC(C1=C(O)C2CCCCCCC2OC1=O)c1cccc(NS(=O)(=O)c2ccc(C#N)cn2)c1,-,>30 µM
Cc1cn([C@H]2C[C@H](N=[N+]=[N-])[C@@H](CO)O2)c(=O)[nH]c1=O,MTT,500 µg/mL
O=C(O[C@H]1Cc2c(O)cc3c(c2O[C@H]1c1cc(O)c(O)c(O)c1)[C@H]1c2c(O)cc(O)cc2O[C@@](c2cc(O)c(O)c(O)c2)(O3)[C@@H]1O)c1cc(O)c(O)c(O)c1,-,40 µg/mL
Cc1cc(=O)oc2c3c(ccc12)OC(C)(C)[C@H](OC(=O)C12CCC(C)(C(=O)O1)C2(C)C)[C@@H]3OC(=O)C12CCC(C)(C(=O)O1)C2(C)C,-,>38.9 µM
Cc1cn([C@H]2C[C@H](N=[N+]=[N-])[C@@H](CO)O2)c(=O)[nH]c1=O,-,>60 µM
COc1cc2c3c(c1OC)-c1cc(O)ccc1C[C@H]3N(C)CC2,cell count,29 µg/mL
CC(C)=CCC/C(C)=C/C[N+]1(C/C=C(\C)CCC=C(C)C)CCc2cc(O)c(O)cc2[C@H]1C,MTT,10.68 µg/mL
Cc1cc(=O)oc2c3c(ccc12)OC(C)(C)[C@H](OC(=O)C12CCC(C)(C(=O)O1)C2(C)C)[C@@H]3OC(=O)C12CCC(C)(C(=O)O1)C2(C)C,cell count,>38.9 µM
O=c1cc(-c2ccccc2)sc2cc(O)ccc12,-,40 µg/mL
CC(C)(O)/C=C/C(=O)[C@](C)(O)C1[C@H](O)C[C@@]2(C)[C@@H]3CC=C4[C@@H](C[C@H](O)[C@@H](O)C4(C)C)[C@]3(C)C(=O)C[C@]12C,-,0.16 µg/mL
CCC(C1=C(O)C2CCCCCC2OC1=O)c1cccc(NS(=O)(=O)c2ccc(C#N)cn2)c1,-,>30 µM
CCCCCC[C@@H]([C@H](C)O)n1cnc2c(N)ncnc21,-,>50 µM

For reference, 4 entries again:

SMILES | method | value
CC(C)[C@H](NC(=O)OCc1ccccc1)C(=O)N[C@@H](Cc1ccccc1)[C@H](O)[C@H](O)[C@H](Cc1ccccc1)NC(=O)[C@@H](NC(=O)OCc1ccccc1)C(C)C | trypan blue | 60 µM
Cc1cn([C@H]2C[C@H](N=[N+]=[N-])[C@@H](CO)O2)c(=O)[nH]c1=O | - | >500 µM
CC(C)[C@H](NC(=O)N(C)Cc1ccccn1)C(=O)N[C@@H](Cc1ccccc1)[C@H](O)[C@@H](O)[C@H](Cc1ccccc1)NC(=O)[C@@H](NC(=O)N(C)Cc1ccccn1)C(C)C | trypan blue | >100 µM
Cc1cn([C@H]2C[C@H](N=[N+]=[N-])[C@@H](CO)O2)c(=O)[nH]c1=O | - | >60 µM